Compound potency records, mixed from different reports. Data source: NIAID ChemDB in PubChem.

Shared fields: enzyme or target tests; species: HIV-1; target: Protease; endpoint: Ki

Blank or dashed fields: not listed here. Conditions beyond the fields shown may differ between rows.

structure,setting,changes,result
N=C1N(Cc2ccccc2)[C@H](Cc2ccccc2)[C@H](O)[C@@H](O)[C@@H](Cc2ccccc2)N1Cc1ccccc1,,,0.22 µM
CC(C)(C)[C@H](NC(=O)OCCc1nc2ccccc2[nH]1)C(=O)N[C@@H](Cc1ccccc1)[C@H](O)[C@@H](CO)[C@H](Cc1ccccc1)NC(=O)[C@@H](NC(=O)OCCc1nc2ccccc2[nH]1)C(C)(C)C,,,0.027 µM
CC(C)C[C@H](NC(=O)[C@@H](NC(=O)CCCCCCCCCCCCCCC(=O)N[C@@H](Cc1ccc(O)cc1)C(=O)N[C@@H](Cc1ccccc1)C(=O)O)C(C)O)C(=O)N[C@@H](Cc1ccccc1)C(N)=O,,,3 µM
O[C@@H]1[C@@H](O)[C@@H](Cc2ccccc2)N(Cc2ccccc2)C(=S)N(Cc2ccccc2)[C@@H]1Cc1ccccc1,,,0.0031 µM
CCC(C)[C@H](NC(=O)[C@@H](C[C@H](O)[C@H](CC1CCCCC1)NC(=O)C(Cc1cnc[nH]1)N(C)C(=O)COc1cccc2ccccc12)C(C)C)C(=O)NCc1ccccn1,,,0.03 µM
CC(C)C[C@H](NC(=O)[C@@H](NC(=O)CCCCCCCCCCCCCCC(=O)N[C@@H](CC(N)=O)C(=O)N[C@@H](Cc1ccccc1)C(=O)O)C(C)O)C(=O)N[C@@H](Cc1ccccc1)C(N)=O,,,3 µM
CC(C)[C@H](NC(=O)[C@@H](NC(=O)C(Cc1ccccc1)CP(=O)(O)C(Cc1ccccc1)NC(=O)[C@@H](NC(=O)[C@@H](NC(=O)OC(C)(C)C)C(C)C)C(C)C)C(C)C)C(N)=O,pH 6.5,,0.0004 µM
CC(C)[C@H](NC(=O)[C@H](Cc1cccc2ccccc12)CS(=O)(=O)C(C)(C)C)C(=O)N[C@@H](Cc1ccccc1)[C@@H](O)[C@H](O)[C@H](Cc1ccccc1)NC(=O)[C@@H](NC(=O)[C@H](Cc1cccc2ccccc12)CS(=O)(=O)C(C)(C)C)C(C)C,,,0.0003 µM
O=C1N(Cc2ccc(CO)cc2)CC[C@@H](O)[C@@H](Cc2ccccc2)N1Cc1ccc(CO)cc1,,,0.23 µM
CC(C)[C@H](NC(=O)[C@@H](NC(=O)C(Cc1ccccc1)CP(=O)(O)C(Cc1ccccc1)NC(=O)c1ccccc1)C(C)C)C(N)=O,pH 6.5,,0.002 µM
COc1ccc(S(=O)(=O)N(CC2CCCC2)C[C@@H](O)CN(CCc2ccccc2)C(=O)OCc2cccnc2)cc1,,,0.017 µM
CCC(C)[C@H](NC(=O)[C@H](C(C)C)[C@@H](O)[C@H](O)[C@H](CC1CCCCC1)NC(=O)c1ccccc1OCCCCC[C@@H]1SC[C@@H]2NC(=O)NC21)C(=O)NCc1ccccn1,,,0.053 µM
CC(C)(C)[C@H](NC(=O)c1nc2ccccc2[nH]1)C(=O)N[C@@H](Cc1ccccc1)[C@H](O)[C@@H](CO)[C@H](Cc1ccccc1)NC(=O)[C@@H](NC(=O)c1nc2ccccc2[nH]1)C(C)(C)C,,,3.7 µM
O=C1N(Cc2ccc3ccccc3c2)[C@H](Cc2ccccc2)[C@H](O)[C@@H](O)[C@@H](Cc2ccccc2)N1Cc1ccc2ccccc2c1,,,0.002 µM
CN1[C@H](COc2ccccc2)[C@H](O)[C@@H](O)[C@@H](COc2ccccc2)N(C)S1(=O)=O,,PR-I84V,20 µM
C[C@H]1CCCCCCCCCCOC(=O)N(C[C@@H](O)[C@H](Cc2ccccc2)NC(=O)O[C@H]2CO[C@H]3OCC[C@H]32)C1,,,0.0089 µM
CCCCNC(=O)[C@H](C)C[C@H](O)[C@H](CC1CCCCC1)NC(=O)[C@@H](NC(=O)[C@H](Cc1cccc2ccccc12)NC(=O)OC(C)(C)C)C(C)C,,,0.115 µM
O=C1CC(O)(Cc2ccccc2)C(O)C(O)(Cc2ccccc2)C1,,,<25 µM
O=C(N[C@H]1c2ccccc2C[C@H]1O)[C@H](Cc1ccccc1)C[C@H](O)CN1C(=O)[C@@H](Cc2ccccc2)C[C@@H]1Cc1ccccc1,,,0.000067 µM
O=C1N(Cc2cccc(O)c2)[C@H](CCc2ccccc2)[C@@H](O)[C@@H](Cc2ccccc2)N1Cc1cccc(O)c1,,,0.00028 µM
CNC(=O)[C@@H](NC(=O)[C@H](OCc1ccc(F)cc1F)[C@H](O)[C@@H](O)[C@@H](OCc1ccc(F)cc1F)C(=O)N[C@H](C(=O)NC)C(C)C)C(C)C,,,0.0012 µM
CCCCNC(=O)[C@H](C)C[C@H](O)[C@H](CC1CCCCC1)NC(=O)[C@@H](NC(=O)[C@H](CCCCN)NC(=O)OC(C)(C)C)[C@@H](C)CC,,,0.7 µM
NCCCC[C@H](NC(=O)[C@@H](N)CCC(=O)O)C(=O)N[C@@H](Cc1ccccc1)C(=O)O,,,2010 µM
CC(C)(C)OC(=O)NCCC(=O)Nc1cccc(C(c2c(O)c3c(oc2=O)CCCCCC3)C2CC2)c1,,,0.015 µM
O=C1N(Cc2cccc(Br)c2)[C@H]2[C@H](CS(=O)(=O)[C@H]2CCCCCO)N1Cc1cccc(Br)c1,,,6.9 µM
COC(=O)c1ccc(CN2[C@H](COc3ccccc3)[C@H](O)[C@@H](O)[C@@H](COc3ccccc3)N(Cc3ccc(C(=O)OC)cc3)S2(=O)=O)cc1,,PR-V82A,0.092 µM
COC(=O)[C@@H](NC(=O)[C@@H](NC(=O)CC[C@H](O)[C@H](Cc1ccccc1)NC(=O)[C@H](C)NC(=O)[C@H](C)NC(=O)OCc1ccccc1)C(C)C)C(C)C,,,0.048 µM
O=S1(=O)[C@H](Cc2ccccc2)[C@H](OCc2ccccc2)[C@H](O)[C@@H](O)[C@@H](OCc2ccccc2)[C@H]1Cc1ccccc1,,,0.0006 µM
CCCCNC(=O)[C@H](C)C[C@H](O)[C@H](CC1CCCCC1)NC(=O)[C@@H](NC(=O)[C@H](CCC(N)=O)NC(=O)OC(C)(C)C)[C@@H](C)CC,,,0.15 µM
CCCCCCCCCCCCCCCC(=O)N[C@@H](Cc1ccc(O)cc1)C(=O)N[C@@H](CCC(=O)O)C(=O)N[C@@H](CC(C)C)C(=O)O,,,0.011 µM
CC(C)(C)NC(=O)[C@@H]1CCCN1C(=O)C(=O)C(Cc1ccccc1)NC(=O)OCc1ccccc1,,,0.2 µM
CC(C)[C@H](NC(=O)[C@@H](NC(=O)C1CCCC1P(=O)(O)C(Cc1ccccc1)NC(=O)c1ccccc1)C(C)C)C(N)=O,pH 6.5,,13 µM
CC(C)(C)NC(=O)c1ccccc1C[C@@H](O)[C@H](CSc1ccc2ccccc2c1)NC(=O)[C@H](CC(N)=O)NC(=O)Oc1ccc2ccccc2n1,,,0.51 µM
O=C1[C@@H](Cc2ccccc2)C[C@@H](O)[C@@H](Cc2ccccc2)N1Cc1ccccc1,,,9.4 µM
CC(C)[C@H](NC(=O)[C@@H](NC(=O)C1CCCCC1P(=O)(O)C(Cc1ccccc1)NC(=O)OCc1ccccc1)C(C)C)C(N)=O,pH 4.5,,0.007 µM
CC(C)(C)[C@H](N)C(=O)N[C@@H](Cc1ccccc1)[C@@H](O)[C@H](CO)[C@H](Cc1ccccc1)NC(=O)[C@@H](N)C(C)(C)C,,,>12.5 µM
O=C(N[C@H]1c2ccccc2C[C@H]1O)[C@H](OCc1ccc(F)c(F)c1)[C@H](O)[C@@H](O)[C@@H](OCc1ccc(F)c(F)c1)C(=O)N[C@H]1c2ccccc2C[C@H]1O,,,0.00492 µM
O=S1(=O)N(Cc2cccc(I)c2)[C@H](COc2ccccc2)[C@H](O)[C@@H](O)[C@@H](COc2ccccc2)N1Cc1cccc(I)c1,,,0.012 µM
CCCCNC(=O)[C@H](C)C[C@H](O)[C@H](CC1CCCCC1)NC(=O)[C@@H](NC(=O)[C@H](CCCN)NC(=O)OC(C)(C)C)C(C)C,,,0.011 µM
CC(C)C[C@H](NC(=O)[C@@H](NC(=O)CCCCCCCCCCCCCCC(=O)N[C@@H](CC(N)=O)C(=O)N[C@@H](Cc1ccccc1)C(=O)O)C(C)O)C(=O)N[C@@H](Cc1ccccc1)C(N)=O,,,3 µM
C/C(=N\O)c1cccc(CN2[C@H](COc3ccccc3)[C@H](O)[C@@H](O)[C@@H](COc3ccccc3)N(Cc3cccc(/C(C)=N/O)c3)S2(=O)=O)c1,,PR-V82A,0.68 µM
CC(C)[C@H](NC(=O)CNC(=O)OCc1ccccc1)C(=O)N[C@@H](Cc1ccccc1)[C@@H](O)[C@H](O)[C@H](Cc1ccccc1)NC(=O)[C@@H](NC(=O)CNC(=O)OCc1ccccc1)C(C)C,,,0.0017 µM
CCCCNC(=O)[C@H](C)C[C@H](O)[C@H](CC1CCCCC1)NC(=O)[C@@H](NC(=O)CNC(=O)OC(C)(C)C)C(C)C,,,0.172 µM
CC(C)(C)[C@H](NC(=O)c1nc2ccccc2[nH]1)C(=O)N[C@@H](Cc1ccccc1)[C@@H](O)[C@H](CO)[C@H](Cc1ccccc1)NC(=O)[C@@H](NC(=O)c1nc2ccccc2[nH]1)C(C)(C)C,,,>12.5 µM
O[C@@H]1[C@@H](O)[C@@H](Cc2ccccc2)N(Cc2ccccc2)C(=NOCc2ccccc2)N(Cc2ccccc2)[C@@H]1Cc1ccccc1,,,3 µM
N#Cc1cccc(CN2CC[C@@H](O)[C@@H](Cc3ccccc3)N(Cc3cccc(C#N)c3)C2=O)c1,,,1.3 µM

2 of the rows above, restated:

structure	setting	changes	result
CCC(C)[C@H](NC(=O)[C@@H](C[C@H](O)[C@H](CC1CCCCC1)NC(=O)C(Cc1cnc[nH]1)N(C)C(=O)COc1cccc2ccccc12)C(C)C)C(=O)NCc1ccccn1			0.03 µM
O=C1N(Cc2ccc(CO)cc2)CC[C@@H](O)[C@@H](Cc2ccccc2)N1Cc1ccc(CO)cc1			0.23 µM